Data published in ChEMBL document CHEMBL5728012, “Substituted nucleosides, nucleotides and analogs thereof” (2020).

Assay: Inhibition Assay: The enzyme activity of NS5B570-Con1 (Delta-21) was measured as an incorporation of tritiated NMP into acid-insoluble RNA products. The complementary IRES (cIRES) RNA sequence was used as a template, corresponding to 377 nucleotides from the 3′-end of HCV (−) strand RNA of the Con-1 strain, with a base content of 21% Ade, 23% Ura, 28% Cyt, and 28% Gua. The cIRES RNA was transcribe
For C#C[C@]1(F)[C@H](n2ccc(N)nc2=O)O[C@](F)(COP(=O)(O)OP(=O)(O)OP(=O)(O)O)[C@H]1O, the IC50 was < 1 µM.
For O=c1ccn([C@@H]2O[C@](F)(COP(=O)(O)OP(=O)(O)OP(=O)(O)O)[C@@H](O)[C@]2(F)CF)c(=O)[nH]1, the IC50 was < 1 µM.
For C[C@]1(N=[N+]=N)[C@H](n2ccc(N)nc2=O)O[C@](F)(COP(=O)(O)OP(=O)(O)OP(=O)(O)O)[C@H]1O, the IC50 was < 1 µM.
